{"sequences": {"note": "Chains of the proteins cited; added tags and fusions are not shown. Lines headed by an entry give the natural chain unless they say otherwise; changes in a name come on top.", "UniProt P03428": "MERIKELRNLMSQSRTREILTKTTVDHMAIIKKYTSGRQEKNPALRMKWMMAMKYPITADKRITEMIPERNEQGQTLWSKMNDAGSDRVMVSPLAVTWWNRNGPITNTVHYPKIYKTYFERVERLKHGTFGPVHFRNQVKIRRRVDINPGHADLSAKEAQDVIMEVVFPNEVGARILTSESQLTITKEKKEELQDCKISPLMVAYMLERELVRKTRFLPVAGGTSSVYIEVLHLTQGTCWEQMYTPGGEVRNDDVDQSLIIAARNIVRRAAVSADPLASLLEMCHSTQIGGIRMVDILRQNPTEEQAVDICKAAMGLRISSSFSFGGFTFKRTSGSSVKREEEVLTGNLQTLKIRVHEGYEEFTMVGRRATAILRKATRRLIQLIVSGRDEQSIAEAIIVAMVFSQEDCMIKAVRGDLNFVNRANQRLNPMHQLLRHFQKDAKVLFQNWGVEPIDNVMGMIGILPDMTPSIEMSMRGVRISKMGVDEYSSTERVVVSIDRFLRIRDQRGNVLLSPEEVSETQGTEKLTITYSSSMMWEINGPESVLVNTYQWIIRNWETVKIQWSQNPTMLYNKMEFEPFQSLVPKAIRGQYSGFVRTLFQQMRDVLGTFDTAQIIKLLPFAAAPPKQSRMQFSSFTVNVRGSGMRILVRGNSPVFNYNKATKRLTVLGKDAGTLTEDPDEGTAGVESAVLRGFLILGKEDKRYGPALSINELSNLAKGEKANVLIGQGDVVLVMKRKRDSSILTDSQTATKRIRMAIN", "UniProt P03431": "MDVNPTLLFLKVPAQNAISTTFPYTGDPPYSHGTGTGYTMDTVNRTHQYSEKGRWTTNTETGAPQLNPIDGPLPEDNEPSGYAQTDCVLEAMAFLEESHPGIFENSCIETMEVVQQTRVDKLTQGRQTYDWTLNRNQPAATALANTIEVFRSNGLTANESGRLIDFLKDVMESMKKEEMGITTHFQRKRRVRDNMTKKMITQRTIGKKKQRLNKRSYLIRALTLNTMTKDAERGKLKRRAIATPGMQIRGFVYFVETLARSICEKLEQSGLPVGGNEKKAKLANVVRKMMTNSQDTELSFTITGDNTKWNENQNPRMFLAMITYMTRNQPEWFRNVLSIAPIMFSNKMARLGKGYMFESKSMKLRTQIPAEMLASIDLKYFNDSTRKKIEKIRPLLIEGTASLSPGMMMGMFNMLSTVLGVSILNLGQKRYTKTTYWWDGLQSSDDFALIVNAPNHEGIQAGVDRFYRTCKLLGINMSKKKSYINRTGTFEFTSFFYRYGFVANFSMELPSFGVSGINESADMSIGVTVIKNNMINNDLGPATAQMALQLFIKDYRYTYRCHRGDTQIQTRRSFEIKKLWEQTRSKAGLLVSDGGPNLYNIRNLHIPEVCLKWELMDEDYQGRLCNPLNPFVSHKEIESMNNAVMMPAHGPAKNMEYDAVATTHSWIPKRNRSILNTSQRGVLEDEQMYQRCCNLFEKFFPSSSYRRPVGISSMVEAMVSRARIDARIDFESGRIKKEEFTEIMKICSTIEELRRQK"}, "source": "ChEMBL document CHEMBL5614404", "about": "“Optimization of potent, broad-spectrum, and specific anti-influenza compounds targeting RNA polymerase PA-PB1 heterodimerization” (Eur J Med Chem, 2024)", "biological_target": "RNA-directed RNA polymerase (Influenza A virus (strain A/Puerto Rico/8/1934 H1N1), UniProt P03428+P03431+P03433)", "experiment": "Inhibition of Influenza A virus RdRp transfected in HEK293T cells co-expressing PA/PB1/PB2/NP/firefly luciferase/Renilla luciferase assessed as impaired nuclear import preincubated for 4 hrs followed by medium replacement with compound measured after 20 hrs by minireplicon assay", "type": "cell-based"}
{"smiles": "NC(=O)c1nc(F)c[nH]c1=O", "values": [{"measurement": "EC50", "value": 10.7, "unit": "µM"}]}
